Data as given in PubChem BioAssay AID1224833 (University of Georgia, 2016).

Purpose: 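Host factors restraining rotavirus as candidate antiviral genes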 (primary screen)
System: monkey MA104 kidney cells
Reagent: siRNA pool against human genes, 50 nM
Duration: 48 h knock-down before infection; read 24 h after infection
Treatment: infection with rotavirus strain RV3 two days after transfection; infectious dose for this stage not given
Read-out: 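z-score of rotavirus antigen signal per well, from a fluorescent immunoassay, relative to non-targeting control wells on the same plate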
Scale: z-score vs non-targeting control: higher = more rotavirus replication than with non-targeting control
Hit rule: In these data the active calls have z-score vs non-targeting control at about -1 or lower, or at about 1 or higher
Meaning of the calls: active = z-score beyond 1 either way; inactive = z-score within 1 of zero
In all, the deposit lists about 12,000 reagents; shown is a part drawn at random. Over the whole deposit, about 5,600 (46%) were called active. 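Active calls cover z-scores past 1 in both directions, so they include lowered as well as raised rotavirus replication.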 A number with no mark means an inactive call. The numbers tell different reagents against one gene apart.

z-score vs non-targeting control, by gene and reagent
LILRA5 (GeneID 353514): #1 -0.956
NOL6 (GeneID 65083): #1 0.151
ZNF593 (GeneID 51042): #1 -0.0036
TENT5D (GeneID 169966): #1 -0.779
ANKRD23 (GeneID 200539): #1 -0.834
GOLGA6L9 (GeneID 440295): #1 -1.2 (active)
SLC25A24 (GeneID 29957): #1 -1.65 (active)
MICAL2 (GeneID 9645): #1 -0.56; #2 2.43 (active)
RAB11FIP4 (GeneID 84440): #1 0.375
NANOG (GeneID 79923): #1 -0.93
NFYC (GeneID 4802): #1 0.585
FANCD2OS (GeneID 115795): #1 -1.63 (active)
KPNB1 (GeneID 3837): #1 -0.675
GLI3 (GeneID 2737): #1 -1.49 (active)
MED13 (GeneID 9969): #1 -0.552
JMY (GeneID 133746): #1 -0.289
ERVFRD-1 (GeneID 405754): #1 -2.28 (active)
SEMA6C (GeneID 10500): #1 0.585
DNAH5 (GeneID 1767): #1 1.85 (active)
DHDDS (GeneID 79947): #1 -2.14 (active)
HELB (GeneID 92797): #1 -1.03 (active)
OR8U9 (GeneID 504190): #1 0.105
PRSS55 (GeneID 203074): #1 0.285
PSME1 (GeneID 5720): #1 -1.15 (active)
RANBP17 (GeneID 64901): #1 -1.03 (active)
STAB1 (GeneID 23166): #1 -0.728
PHAX (GeneID 51808): #1 -1.45 (active)
INO80C (GeneID 125476): #1 -1.12 (active)
CHTF18 (GeneID 63922): #1 -0.0742
NFATC3 (GeneID 4775): #1 -1 (active)
POGLUT3 (GeneID 143888): #1 0.502
MAN1C1 (GeneID 57134): #1 -1.23 (active)
MPPED1 (GeneID 758): #1 -0.515
PCDHGC4 (GeneID 56098): #1 -0.375
DRICH1 (GeneID 51233): #1 -2.9 (active)
DNAJB12 (GeneID 54788): #1 -0.324
NECAP2 (GeneID 55707): #1 -2.44 (active)
THAP3 (GeneID 90326): #1 1.09 (active)
TMED9 (GeneID 54732): #1 -1.11 (active)
KANSL2 (GeneID 54934): #1 -1.2 (active)
APBA3 (GeneID 9546): #1 1.52 (active)
PCDHGA1 (GeneID 56114): #1 0.119
TBC1D20 (GeneID 128637): #1 -0.197
SEPSECS (GeneID 51091): #1 0.804
PLAAT3 (GeneID 11145): #1 -0.673
MAGIX (GeneID 79917): #1 -1.27 (active)
MCEMP1 (GeneID 199675): #1 -2 (active)
IL11 (GeneID 3589): #1 -1.94 (active)
KLRK1 (GeneID 22914): #1 -0.0181
SCRT1 (GeneID 83482): #1 -2.48 (active)
SPATA31D1 (GeneID 389763): #1 -1.91 (active)
FOXN3 (GeneID 1112): #1 -2.62 (active)
SETBP1 (GeneID 26040): #1 1.29 (active)
NCBP3 (GeneID 55421): #1 -0.236
AUTS2 (GeneID 26053): #1 0.178
SCARF2 (GeneID 91179): #1 -2.11 (active)
EFTUD2 (GeneID 9343): #1 0.983
CRISP3 (GeneID 10321): #1 2.98 (active)
MOSPD1 (GeneID 56180): #1 -0.296
KRT1 (GeneID 3848): #1 -0.65
ADAM9 (GeneID 8754): #1 1.54 (active)
CDK9 (GeneID 1025): #1 4.18 (active)
GSC (GeneID 145258): #1 0.112
CTNNA2 (GeneID 1496): #1 -1.29 (active)
POFUT1 (GeneID 23509): #1 -0.901
PPP1R10 (GeneID 5514): #1 1.45 (active)
OXLD1 (GeneID 339229): #1 -1.1 (active)
PMFBP1 (GeneID 83449): #1 0.989
ITGBL1 (GeneID 9358): #1 -1.43 (active)
TRMT112 (GeneID 51504): #1 -0.904
CLEC2L (GeneID 154790): #1 -2.12 (active)
CYTIP (GeneID 9595): #1 -1.79 (active)
SFMBT2 (GeneID 57713): #1 -0.0316
NFKB2 (GeneID 4791): #1 0.954
CTCF (GeneID 10664): #1 -2.11 (active)
SLC35G1 (GeneID 159371): #1 -1.75 (active)
SYS1 (GeneID 90196): #1 -0.516
DNAJC6 (GeneID 9829): #1 -0.57
TRDMT1 (GeneID 1787): #1 0.781
PRR15L (GeneID 79170): #1 1.33 (active)
VPREB3 (GeneID 29802): #1 -0.717
TMEM171 (GeneID 134285): #1 -0.195
ABHD5 (GeneID 51099): #1 1.18 (active)
POFUT2 (GeneID 23275): #1 0.983
DHX33 (GeneID 56919): #1 -0.559
OMD (GeneID 4958): #1 0.202
PHGDH (GeneID 26227): #1 0.153
RILP (GeneID 83547): #1 -0.253
VANGL2 (GeneID 57216): #1 1.61 (active)
PAGE2 (GeneID 203569): #1 1.59 (active)
GEMIN2 (GeneID 8487): #1 0.993
TARP (GeneID 445347): #1 0.447
PMM1 (GeneID 5372): #1 -2.47 (active)
BIVM (GeneID 54841): #1 0.461
PRIMA1 (GeneID 145270): #1 -0.127
COA7 (GeneID 65260): #1 -0.702
HNRNPD (GeneID 3184): #1 0.877
OR6S1 (GeneID 341799): #1 -0.567
PDF (GeneID 64146): #1 1.09 (active)
FGF9 (GeneID 2254): #1 0.993
TNFRSF9 (GeneID 3604): #1 0.559
CABCOCO1 (GeneID 219621): #1 -0.346
CCL4L1 (GeneID 388372): #1 -1.87 (active)
SSBP2 (GeneID 23635): #1 0.125
OLFM1 (GeneID 10439): #1 0.641
ANKRD16 (GeneID 54522): #1 -1.19 (active)
CEP162 (GeneID 22832): #1 -0.0895
MUC17 (GeneID 140453): #1 -2.8 (active)
ARHGAP26 (GeneID 23092): #1 -0.252
